Assay: Pigskin staining test
Design: species or system pig; key to Staining: +: tends to stain certain surfaces; −: do not stain
Details: for Staining Results: about 10 μL on pigskin, about 24 hours, room temperature; for Staining: Table 14 summary

Question: Which “Staining Results” value (0.14% solution) does the source give for `O=Cc1ccccc1C=O` [OPA, phthalaldehyde] here?
Answer: The value was “Dark Staining”.

Question: What about the Staining of the same compound?
Answer: The Staining was “+”.

Question: Which “Staining Results” value (0.20% solution) does the source give for `O=Cc1cccc(C=O)c1` [IPA, isophthalaldehyde] here?
Answer: Its value is “Non-Staining”.

Question: What about the Staining of the same compound?
Answer: The Staining was “−”.

Question: For `O=Cc1ccc(C=O)cc1` [TPA, terephthalaldehyde], which Staining is on record?
Answer: Its Staining is “−”.

Reference: patent US7476767B2, “Alpha-hydroxy sulfonate aldehydes, germicidal compositions containing the alpha-hydroxy sulfonate aldehydes, or mixtures of alpha-hydroxy sulfonate aldehydes and phthalaldehydes, and methods of using the compounds or compositions for disinfection or sterilization” (Ethicon, Inc., priority 2004, dated 2009)
